Compound potency records, mixed from different reports. Data source: NIAID ChemDB in PubChem.

Common to all: whole-cell or culture tests; organism: HIV-1; method: cytopathic effect / XTT; endpoint: EC50

Blank or dashed fields: not listed here. Neighbouring rows are from separate reports. a–b is a range or a potency band. ECn is the concentration giving n% inhibition of infection, replication or growth.

compound	mutations	cells	conditions	strain	result
CC[C@H](C)[C@H](NC(=O)c1ccccc1SSc1ccccc1C(=O)N[C@H](C(=O)O)[C@@H](C)CC)C(=O)O	-	CEM	-	-	9 µM
Cc1ccc2c(c1)C(=O)N1CSCC1C(=O)S2	-	CEM	-	RF	>35 µM
Nc1nc2c(ncn2[C@H]2C=C[C@@H](CO)C2)c(=O)[nH]1	-	ATH8	-	-	0.19 µg/mL
Nc1nc(=O)n([C@@H]2CS[C@H](CO)O2)cc1F	-	MT-2	-	LAI Recombinant	0.6 µM
CN1CC=C(CC2(CC3=CCN(C)CC3)c3cccc4cccc(c34)C2O)CC1	-	MT-2	-	IIIB	5.2 µM
CN(C)C=Nc1ccn([C@H]2CC[C@@H](CO)O2)c(=O)n1	-	CEM + CEM-SS	-	RF	1 µg/mL
CC(C)(C)OC(=O)N[C@@H](Cc1ccccc1)[C@H](O)CNC[C@@H](O)[C@H](Cc1ccccc1)NC(=O)COc1ccccc1	-	CEM + CEM-SS	-	RF	3.2 µM
C/C=C/CSc1cc(NC(=S)c2ccsc2C)ccc1Cl	-	U-937	-	IIIB	0.006 µM
Nc1nc2c(ncn2[C@@H]2C=C[C@H](CO)C2)c(=O)[nH]1	-	MT-2	-	IIIB	>200 µM
O=C(/C=C/c1ccc(O)c(O)c1)O[C@H]1CCCC[C@@H]1OC(=O)/C=C/c1ccc(O)c(O)c1	-	CEM + CEM-SS	-	-	>5.67 µM
CCCCCCCCN1C(=O)C(CC2=CCN(C)CC2)(CC2=CCN(C)CC2)c2ccccc21	-	MT-2	-	IIIB	4.3 µM
CN1CCC(C2Sc3ccccc3C(=O)N3CCCC23)CC1	-	CEM	-	-	>125 µM
CCCCN1C(=O)CCC1C(=O)OC[C@H]1O[C@@H](n2cc(C)c(=O)[nH]c2=O)C[C@@H]1N=[N+]=[N-]	-	CEM + CME-SS	-	-	0.085 µM
O=C(/C=C/c1ccc(O)c(O)c1)OCCOC(=O)/C=C/c1ccc(O)c(O)c1	-	CEM + CEM-SS	-	RF	>9.85 µM
O=C(Nc1ccccc1-c1nn(CO)c(=S)n(CO)c1=O)C(F)(F)F	-	CEM	-	RF	>62.5 µg/mL
O=C1N(Cc2ccc(CO)cc2)[C@H](COc2ccccc2)[C@H](O)[C@@H](O)[C@@H](COc2ccccc2)N1Cc1ccc(CO)cc1	PR-I84V	MT-4	-	IIIB	0.95 µM
NC(=O)c1cn([C@H]2CS[C@H](CO)O2)cn1	-	CEM + CEM-SS	-	RF	9 µg/mL
CC(C)=CCN1Cc2cc(Cl)cc3[nH]c(=S)n(c23)C[C@@H]1C	-	CEM + CEM-SS	-	SK1	0.062 µM
CC(=O)O[C@@H]1CC[C@@]2(C)[C@H](CC[C@@H]3[C@@H]2CC[C@]2(C)[C@@H]([C@H](C)CCC(=O)OC[C@H]4O[C@@H](n5cc(C)c(=O)[nH]c5=O)C[C@@H]4N=[N+]=[N-])CC[C@@H]32)C1	-	CEM + CME-SS	-	-	0.089 µM
O=C(O)CCCCCCCCCCCI	-	CEM + CEM-SS	-	IIIB	30 ± 8.9 µM
CCN1CC=C(CC2(CC3=CCN(CC)CC3)C(=O)N(c3ccccc3)c3ccccc32)CC1	-	MT-2	-	IIIB	3.8 µM
O=C(/C=C/c1ccc(O)c(O)c1)OCCOC(=O)/C=C/c1ccc(O)c(O)c1	-	CEM + CEM-SS	-	-	>9.89 µM
O/N=C1\C(=C\c2ccc3c(c2)OCCO3)CCCC1C(NO)c1ccc2c(c1)OCCO2	-	CEM	-	RF	>165 µM
CC(C)(C)OC(=O)N[C@@H](Cc1ccccc1)[C@H](O)CNC[C@@H](O)[C@H](Cc1ccc(OCC(=O)N2CCOCC2)cc1)NC(=O)OC(C)(C)C	-	CEM + CEM-SS	-	RF	0.1 µM
CC1=CC(=O)C(C)(C2=NC(C)(C)CO2)c2ccccc21	-	CEM + CEM-SS	-	RF	27 µM
COc1cccc2c1N(C(=O)OC(C)C)C(CSC)C(=S)N2	-	PBMC	-	-	0.004 µM
O=C(Nc1ccccc1-c1n[nH]c(=S)[nH]c1=O)C(F)(F)F	-	CEM	-	RF	134 µg/mL
CCCc1cc(=O)oc2c3c(c4c(c12)OC(C)(C)C=C4)O[C@@H](C)[C@H](C)[C@@H]3O	-	-	-	-	0.3 µM
CN(C)[C@@H]1C(=O)C(C(=O)NCNC2(C(=O)[O-])CCCC2)=C(O)[C@@]2(O)C(=O)C3=C(O)c4c(O)cccc4[C@@](C)(O)[C@H]3C[C@@H]12.[Na+]	-	CEM	-	RF	0.6 µM
Nc1ncnc2c1ncn2[C@H]1CC[C@@H](CO)C1	-	MT-2	-	-	24.3 µg/mL
Nc1nc(N)c2ncn([C@H]3CO[C@@H](CO)O3)c2n1	-	MT-2	-	LAI	12.5 µM
O=S(=O)(c1ccccc1)c1ccccc1	RT-Y181C	CEM + CEM-SS	-	UC040-R (RT-Y181C)	>114 µM
Cc1nc(CC2(Cc3csc(C)n3)C(=O)N(c3ccccc3)c3ccccc32)cs1	-	MT-2	-	IIIB	4 µM
Cc1ccc(NC(=O)c2ccccc2SSc2ccccc2C(=O)Nc2ccc(C)cc2)cc1	-	CEM	-	-	9.1 µM
CC(C)(C)NC(=O)[C@@H]1C[C@@H]2CCCC[C@@H]2CN1C[C@@H](O)[C@H](Cc1ccccc1)NC(=O)[C@H](CC(N)=O)NC(=O)c1ccc2ccccc2n1	-	CEM + CEM-SS	-	RF	0.006 µM
Cc1cn([C@H]2C[C@H](N=[N+]=[N-])[C@@H](CO)O2)c(=O)[nH]c1=O	-	CEM + CEM-SS	-	IIIB	0.0033 µM
O=c1[nH]cnc2c1ncn2[C@H]1CC[C@@H](CO)O1	-	CEM + CEM-SS	-	BRU	2.3 µg/mL
CN(C)[C@@H]1C(=O)C(C(=O)NCNc2nc3n[nH]nc3c(=O)[nH]2)=C(O)[C@@]2(O)C(=O)C3=C(O)c4c(O)cccc4[C@@](C)(O)[C@H]3C[C@@H]12	-	CEM	-	RF	100 µM
O=C(/C=C/c1ccc(O)c(O)c1)OCCCOC(=O)/C=C/c1ccc(O)c(O)c1	-	CEM + CEM-SS	-	RF	>13.7 µM
O=[N+]([O-])c1ccccc1S(=O)(=O)Oc1ccccc1	-	CEM + CEM-SS	-	RF	6.3 µM
CC(C)CC(NC(=O)c1ccccc1SSc1ccccc1C(=O)NC(CC(C)C)C(=O)NC(C)C(=O)O)C(=O)NC(C)C(=O)O	-	CEM	-	-	71 µM
Cc1occc1C(=S)Nc1ccc(Cl)c(/C=N/OC(C)(C)C)c1	RT-L100I	CEM + CEM-SS	-	NL4-3 (RT L100I)	2.2 µM
C[C@H](NC=O)C(=O)N[C@H](C(=O)N[C@@H](Cc1ccccc1)[C@H](O)CNC[C@@H](O)[C@H](Cc1ccccc1)NC(=O)OC(C)(C)C)C(C)(C)C	-	CEM + CEM-SS	-	RF	5 µM
CC(=O)Oc1ccc(/C=C/C(=O)OCCOC(=O)/C=C/c2ccc(OC(C)=O)c(OC(C)=O)c2)cc1OC(C)=O	-	CEM + CEM-SS	-	-	>6.7 µM
CN(C)[C@H]1C(=O)C(C(=O)NCN2CCN(C(=N)N=C(N)N)CC2)=C(O)[C@]2(O)C(=O)C3=C(O)c4c(O)cccc4[C@](C)(O)[C@@H]3C[C@H]12	-	CEM	-	RF	0.3 µM
CN1CC=C(CC2C(=O)N(c3ccccc3)c3ccccc32)CC1	-	MT-2	-	IIIB	5.6 µM
O=[N+]([O-])c1ccccc1S(=O)(=O)c1ccccc1	-	MT-2	-	RF	9.28 µM
O=C(O)CCCCCCCCCCCBr	-	CEM + CEM-SS	-	IIIB	38 ± 10.7 µM
COC1=CC(=O)c2ccccc2C1(C)C1=NC(C)(C)CO1	-	CEM + CEM-SS	-	RF	>320 µM
CCCc1cc(=O)[nH]c2c3c(c4c(c12)OC(C)(C)C=C4)O[C@H](C)[C@@H](C)[C@@H]3O	-	CEM + CEM-SS	-	RF	0.12 µM
Cc1cn([C@H]2C[C@H](N=[N+]=[N-])[C@@H](CO)O2)c(=O)[nH]c1=O	-	CEM + CEM-SS	-	RF	0.003–0.004 µM
O=C1N(c2ccccc2)c2ccccc2C1(Cc1nccn1Cc1ccccc1)Cc1nccn1Cc1ccccc1	-	MT-2	-	IIIB	1.3 µM
CC1(C)COC(C2(C)C(=O)C=Cc3ccccc32)=N1	-	CEM + CEM-SS	-	RF	40 µM
CN1CC=C(Cc2cn(-c3ccccc3)c3ccccc23)CC1	-	MT-2	-	IIIB	4.4 µM
CCc1c(C(=O)c2cc(C)cc(C)c2)n(CC2CC=CC2)c(=O)[nH]c1=O	-	PBMC	clinical isolate	SIKA	0.0008 µM
O=[N+]([O-])c1ccccc1Sc1ccccc1	-	CEM + CEM-SS	-	RF	43 µM
CN(C)C1C(=O)C(C(=O)NCNC(CCS(C)=O)C(=O)[O-])=C(O)C2(O)C(=O)C3=C(O)c4c(O)cccc4C(C)(O)C3CC12.[Na+]	-	CEM	-	RF	100 µM
O=C(n1c2ccccc2c2n[nH]c(=S)nc21)C(F)(F)F	-	CEM	-	RF	>12.5 µg/mL
CC(C)(C)NC(=O)[C@@H]1CN(Cc2cccnc2)CCN1C[C@@H](O)C[C@@H](Cc1ccccc1)C(=O)N[C@H]1c2ccccc2C[C@H]1O	-	CEM + CEM-SS	-	RF	0.004 µM
O=[N+]([O-])c1ccccc1Sc1ccccc1[N+](=O)[O-]	-	CEM + CEM-SS	-	RF	5.7 µM
Cc1cn([C@H]2C[C@H](N=[N+]=[N-])[C@@H](COC(=O)C3CCC(=O)N3C)O2)c(=O)[nH]c1=O	-	CEM + CME-SS	-	-	0.081 µM
CC(C)=CCN1Cc2cccc3[nH]c(=S)n(c23)C[C@@H]1C	RT-Y181C	CEM + CEM-SS	-	RF	>100 µM
O=C(/C=C/c1ccc(O)c(O)c1)NCCOC(=O)/C=C/c1ccc(O)c(O)c1	-	CEM + CEM-SS	-	RF	>9.45 µM
Cc1cccc(NC(=O)c2ccccc2SSc2ccccc2C(=O)Nc2cccc(C)c2)c1	-	CEM	-	-	20 µM
Nc1ccn([C@H]2CC[C@@H](CO)O2)c(=O)n1	-	CEM + CEM-SS	-	RF	0.048 µM
O=[N+]([O-])c1ccccc1S(=O)(=O)c1ccccc1[N+](=O)[O-]	-	CEM + CEM-SS	-	RF	0.89 µM
O=C(/C=C/c1ccc(O)c(O)c1)NCCOC(=O)/C=C/c1ccc(O)c(O)c1	-	CEM + CEM-SS	-	-	>7.71 µM
O=S1(c2ccccc2)=NC(=S)Nc2ccccc21	-	CEM + CEM-SS	-	214	1.2 µM
Cc1ccc(S(=O)(=O)c2ccccc2[N+](=O)[O-])cc1	-	CEM + CEM-SS	-	RF	6.2 µM
C[C@H](OC(=O)/C=C/c1ccc(O)c(O)c1)[C@H](C)OC(=O)/C=C/c1ccc(O)c(O)c1	-	CEM + CEM-SS	-	RF	>3.47 µM

A second listing of 6 rows from above:

compound | mutations | cells | conditions | strain | result
O=C1N(c2ccccc2)c2ccccc2C1(Cc1nccn1Cc1ccccc1)Cc1nccn1Cc1ccccc1 | - | MT-2 | - | IIIB | 1.3 µM
O=C1N(Cc2ccc(CO)cc2)[C@H](COc2ccccc2)[C@H](O)[C@@H](O)[C@@H](COc2ccccc2)N1Cc1ccc(CO)cc1 | PR-I84V | MT-4 | - | IIIB | 0.95 µM
CC(C)(C)NC(=O)[C@@H]1C[C@@H]2CCCC[C@@H]2CN1C[C@@H](O)[C@H](Cc1ccccc1)NC(=O)[C@H](CC(N)=O)NC(=O)c1ccc2ccccc2n1 | - | CEM + CEM-SS | - | RF | 0.006 µM
Cc1nc(CC2(Cc3csc(C)n3)C(=O)N(c3ccccc3)c3ccccc32)cs1 | - | MT-2 | - | IIIB | 4 µM
CN(C)C1C(=O)C(C(=O)NCNC(CCS(C)=O)C(=O)[O-])=C(O)C2(O)C(=O)C3=C(O)c4c(O)cccc4C(C)(O)C3CC12.[Na+] | - | CEM | - | RF | 100 µM
Nc1nc(N)c2ncn([C@H]3CO[C@@H](CO)O3)c2n1 | - | MT-2 | - | LAI | 12.5 µM